Results on one molecule are retold here after PMC12345230, “Sugar phosphate-mediated inhibition of peptidoglycan precursor synthesis” (mBio, 2025).

Chains of the proteins cited; added tags and fusions are not shown. Lines headed by an entry give the natural chain unless they say otherwise; changes in a name come on top.
UniProt Q9KNH7: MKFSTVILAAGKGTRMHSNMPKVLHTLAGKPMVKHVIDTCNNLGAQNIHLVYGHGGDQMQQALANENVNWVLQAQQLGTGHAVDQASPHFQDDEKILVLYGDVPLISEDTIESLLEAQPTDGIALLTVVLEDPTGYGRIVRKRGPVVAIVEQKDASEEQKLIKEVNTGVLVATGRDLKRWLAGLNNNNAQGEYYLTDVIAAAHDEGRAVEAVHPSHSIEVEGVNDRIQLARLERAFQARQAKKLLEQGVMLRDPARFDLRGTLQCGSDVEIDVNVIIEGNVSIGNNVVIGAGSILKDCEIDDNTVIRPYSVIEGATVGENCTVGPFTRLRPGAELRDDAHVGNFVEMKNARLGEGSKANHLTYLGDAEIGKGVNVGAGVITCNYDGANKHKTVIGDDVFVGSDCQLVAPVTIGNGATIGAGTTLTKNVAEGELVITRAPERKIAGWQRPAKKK

The target of this test is GlmU (GlmU VC, vc2762) (Vibrio cholerae, UniProt Q9KNH7). As to the kind of experiment: LC-MS of UDP-GlcNAc and GlcNAc-1P formed. It is filed as biochemical. Conditions: 5 mM GlcN-1P, 5 mM UTP, 5 mM acetyl-CoA, 2 µM GlmU, MgCl2, Tris-HCl pH 7.5, 30 °C, 30 min; G1P 0-250 mM; acetyltransferase site, likely competitive with GlcN-1P.

Turning to `O=P(O)(O)O[C@H]1O[C@H](CO)[C@@H](O)[C@H](O)[C@H]1O` [G1P, glucose-1-phosphate], the “LC-MS of UDP-GlcNAc and GlcNAc-1P formed” value was “increasing concentrations of G1P, but not G6P”.
